Compound potency records, mixed from different reports. Data source: NIAID ChemDB in PubChem.

Common to all: growth or infection tests; organism: HIV-1; cell line: CEM + CEM-SS; read-out: EC50

Conditions beyond the fields shown may differ between rows. ECn is the concentration giving n% inhibition of infection, replication or growth. a–b is a range or a potency band. An empty or dashed field is not shown.

smiles,strain or isolate,read by,changes,result
CCCc1cc(=O)oc2c3c(c4c(c12)OC(C)(C)C=C4)O[C@@H](C)[C@H](C)C3=O,IIIB,cytopathic effect / MTT,,2.47 µM
NCC#Cc1cn([C@H]2C=C[C@@H](CO)O2)c(=O)[nH]c1=O,LAI,RT activity,,>100 µM
Cc1cn([C@H]2C=C[C@@H](COP(=O)(O)OCc3ccccc3)O2)c(=O)[nH]c1=O,,cytopathic effect,,0.016 µM
CCCc1cc(=O)oc2c3c(c4c(c12)OC(C)(C)C=C4)O[C@H](C)[C@H](C)[C@@H]3O,RF,XTT,,>10 µM
CC(C)(C)NC(=O)c1cc2ccccc2cc1C[C@@H](O)[C@H](Cc1ccccc1)NC(=O)[C@H](CC(N)=O)NC(=O)c1ccc2ccccc2n1,RF,cytopathic effect / XTT,,0.98 µM
Cc1cn([C@H]2C[C@H](N=[N+]=[N-])[C@@H](CO)O2)c(=O)[nH]c1=O,RF,cytopathic effect / XTT,,0.0003 µM
C[C@@H]1[C@H](OC(=O)N[C@@H](CSc2ccccc2)[C@H](O)CN2C[C@H]3CCS[C@H]3C[C@H]2C(=O)NC(C)(C)C)CCS1(=O)=O,HXB2,cytopathic effect / XTT,,<0.019 µM
O=C(/C=C/c1ccc(O)c(O)c1)NCCOC(=O)/C=C/c1ccc(O)c(O)c1,RF,cytopathic effect / XTT,,>9.45 µM
CCCc1cc(=O)oc2c3c(c4c(c12)OC(C)(C)C=C4)O[C@H](C)C(C)(C)[C@@H]3O,IIIB,cytopathic effect / MTT,,>20.3 µM
CC(C)=CCN1Cc2cccc3[nH]c(=S)n(c23)C[C@@H]1C,IIIB,cytopathic effect / XTT,,0.1 µM
Cc1cn([C@H]2C[C@H](N=[N+]=[N-])[C@@H](CO)O2)c(=O)[nH]c1=O,RF,cytopathic effect / MTS,,0.001 µM
CC(C)=CCN1Cc2cc(Cl)cc3[nH]c(=S)n(c23)C[C@@H]1C,SK1,cytopathic effect / XTT,,0.062 µM
CC(=O)Oc1ccc(/C=C/C(=O)O[C@@H](C)[C@H](C)OC(=O)/C=C/c2ccc(OC(C)=O)c(OC(C)=O)c2)cc1OC(C)=O,,cytopathic effect / XTT,,>5.45 µM
CC(C)(C)C(=O)SCCOP(=O)(OCCSC(=O)C(C)(C)C)OC[C@@H]1CC[C@H](n2cnc3c(N)ncnc32)O1,LAI,RT activity,,0.0002 µM
Cc1cccc(C[C@@H](O)[C@H](Cc2ccccc2)NC(=O)[C@H](CC(N)=O)NC(=O)c2ccc3ccccc3n2)c1C(=O)NC(C)(C)C,RF,cytopathic effect / XTT,,0.92 µM
O=C=Nc1cc(S(=O)(=O)c2ccc(Cl)c(N=C=O)c2)ccc1Cl,RF,XTT,,>100 µg/mL
CCCCCC=C(c1cc(Cl)c(OC)c(C(N)=O)c1)c1cc(Cl)c(OC)c(C(N)=O)c1,RF,cytopathic effect / XTT,,>31 µM
Cc1cn([C@H]2C[C@H](N=[N+]=[N-])[C@@H](CO)O2)c(=O)[nH]c1=O,LAI,RT activity,,0.006 µM
Cc1cn([C@H]2C[C@H](N=[N+]=[N-])[C@@H](COP(=O)(O)C(=O)OCCSC(=O)C(C)(C)C)O2)c(=O)[nH]c1=O,LAI,RT activity,,2.1 µM
CCc1c(Sc2ccccn2)n(COCc2ccccc2)c(=O)[nH]c1=O,IIIB,cytopathic effect / XTT,,0.008 µM
Cc1occc1C(=S)Nc1ccc(Cl)c(/C=N/OC(C)(C)C)c1,HEPT-resistant (RT P236L),cytopathic effect / XTT,RT-P236L,0.2 µM
Cc1cc(SC2=C(O)CC(CCc3ccccc3)(c3ccccc3)OC2=O)c(C(C)(C)C)cc1CO,RF,cytopathic effect / XTT,,0.5 µM
C[C@H]1[C@@H](OC(=O)N[C@@H](CSc2ccccc2)[C@H](O)CN2C[C@H]3CCS[C@H]3C[C@H]2C(=O)NC(C)(C)C)CCS1(=O)=O,HXB2,cytopathic effect / XTT,,<0.031 µM
Cc1cn([C@H]2C[C@H](N=[N+]=[N-])[C@@H](CO)O2)c(=O)[nH]c1=O,NL4-3,cytopathic effect / XTT,RT-A98G,0.01 µM
CCCc1cc(=O)oc2c3c(c4c(c12)OC(C)(C)C=C4)O[C@H](CC)[C@@H](C)C3=O,IIIB,cytopathic effect / MTT,,>6.8 µM
CCCc1cc(=O)oc2c3c(c4c(c12)OC(C)(C)C=C4)O[C@H](C)[C@@H](C)[C@@H]3O,IIIB,cytopathic effect / XTT,,0.08 µM
Cc1cn([C@H]2C[C@H](N=[N+]=[N-])[C@@H](CO)O2)c(=O)[nH]c1=O,MN,cytopathic effect / XTT,,0.0005 µM
Cc1cn([C@H]2C[C@H](N=[N+]=[N-])[C@@H](CO)O2)c(=O)[nH]c1=O,RF,cytopathic effect / XTT,,0.003–0.004 µM
Cc1cn([C@H]2C[C@H](N=[N+]=[N-])[C@@H](COP(=O)(OCCSC(=O)C(C)(C)C)OCCSC(=O)C(C)(C)C)O2)c(=O)[nH]c1=O,LAI,RT activity,,0.0004 µM
O=c1[nH]c(=O)n([C@H]2C=C[C@@H](CO)O2)cc1C#CCCCO,LAI,RT activity,,120 µM
CC(=O)Oc1ccc(/C=C/C(=O)OCCOC(=O)/C=C/c2ccc(OC(C)=O)c(OC(C)=O)c2)cc1OC(C)=O,,cytopathic effect / XTT,,>6.7 µM
Cc1cn(C2CC(N=[N+]=[N-])C(COP(=O)(OC[C@H]3O[C@@H](n4cc(C)c(=O)[nH]c4=O)C[C@@H]3N=[N+]=[N-])C(=O)OCCSC(=O)C(C)(C)C)O2)c(=O)[nH]c1=O,LAI,RT activity,,0.003 µM
C[C@H](OC(=O)/C=C/c1ccc(O)c(O)c1)[C@H](C)OC(=O)/C=C/c1ccc(O)c(O)c1,,cytopathic effect / XTT,,>3.3 µM
CCOC(=O)CCNP(=O)(OC[C@@H]1O[C@H](n2cc(C)c(=O)[nH]c2=O)C[C@H]1N=[N+]=[N-])OC[C@H]1O[C@@H](n2cc(C)c(=O)[nH]c2=O)C[C@@H]1N=[N+]=[N-],LAI,RT activity,,0.016 µM
O=C(/C=C/c1ccc(O)c(O)c1)O[C@H]1CCCC[C@@H]1OC(=O)/C=C/c1ccc(O)c(O)c1,RF,cytopathic effect / XTT,,>5.67 µM
CC(C)=CCOc1cc(NC(=S)c2ccoc2C)ccc1Cl,UC781-resistant,,,>620 µM
CC(C)(C)OC(=O)N[C@@H](Cc1ccccc1)[C@H](O)CNC[C@@H](O)[C@H](Cc1ccccc1)NC(=O)OC(C)(C)C,RF,cytopathic effect / XTT,,0.05 µM
CNc1ccc(Cl)cc1S(=O)(=O)c1ccccc1[N+](=O)[O-],IIIB,XTT,,0.1 µM
c1ccc2c(c1)sc1nccn12,IIIB,cytopathic effect / XTT,,0.35 µM
C[C@@H]1OCC[C@@H]1OC(=O)N[C@@H](CSc1ccccc1)[C@H](O)CN1C[C@H]2CCS[C@H]2C[C@H]1C(=O)NC(C)(C)C,HXB2,cytopathic effect / XTT,,<0.162 µM
Cc1cn([C@H]2C=C[C@@H](CO)O2)c(=O)[nH]c1=O,RF,cytopathic effect / XTT,,0.22–0.32 µM
Cc1ccnc2c1NC(=O)c1cccnc1N2C1CC1,A17,cytopathic effect / XTT,Pyridinone-resistant (RT Y181C K103N),>38 µM
O=C=Nc1cccc(S(=O)(=O)c2cccc(N=C=O)c2)c1,RF,XTT,,>100 µg/mL
O=S1(c2ccccc2)=NC(=S)Nc2ccccc21,IIIB,cytopathic effect / XTT,,1.39 µM
CCc1c(Sc2ccccn2)n(COCc2ccccc2)c(=O)[nH]c1=O,IIIB HEPT-resistant (RT P236L),cytopathic effect / XTT,RT-P236L,1 µM
Cc1cn([C@H]2C[C@H](N=[N+]=[N-])[C@@H](COP(=O)(OCc3ccccc3)OCc3ccccc3)O2)c(=O)[nH]c1=O,,cytopathic effect,,0.01 µM
CC(=O)Oc1ccc(/C=C/C(=O)O[C@@H](C(=O)O)[C@@H](OC(=O)/C=C/c2ccc(OC(C)=O)c(OC(C)=O)c2)C(=O)O)cc1OC(C)=O,RF,cytopathic effect / XTT,,16.85 µM
CC(C)(C)C(=O)SCCCCOP(=O)(OCCCCSC(=O)C(C)(C)C)OC[C@@H]1CC[C@H](n2cnc3c(N)ncnc32)O1,LAI,RT activity,,>10 µM
O=c1[nH]c(=O)n([C@H]2C=C[C@@H](CO)O2)cc1C#CCOC1CCCCO1,LAI,RT activity,,>50 µM
CC(C)[C@@H]1SCC[C@@H]1OC(=O)N[C@@H](Cc1ccccc1)[C@H](O)CN1C[C@H]2CCS[C@H]2C[C@H]1C(=O)NC(C)(C)C,HXB2,cytopathic effect / XTT,,<0.686 µM
Cc1cn([C@H]2C[C@H](N=[N+]=[N-])[C@@H](CO)O2)c(=O)[nH]c1=O,RF,RT activity,,0.022 µM
CC(C)(C)C(=O)SCCOC(=O)P(=O)(OCCSC(=O)C(C)(C)C)OCCSC(=O)C(C)(C)C,LAI,RT activity,,>10 µM
CC(C)=CCC[C@]1(C)C=Cc2c(ccc3c2C(=O)C(O)=C(C2=C(C4=C(O)C(=O)c5c(ccc6c5C=C[C@@](C)(CCC=C(C)C)O6)C4=O)C(=O)c4c(ccc5c4C=C[C@@](C)(CCC=C(C)C)O5)C2=O)C3=O)O1,RF,cytopathic effect / XTT,,<0.02 µM
Cc1cn([C@H]2C[C@H](N=[N+]=[N-])[C@@H](CO)O2)c(=O)[nH]c1=O,IIIB,cytopathic effect / XTT,,1.82 µM
Cc1cn([C@H]2C=C[C@@H](CO)O2)c(=O)[nH]c1=O,,cytopathic effect,,0.049 µM
CC(C)(C)NC(=O)[C@@H]1CN(Cc2cccnc2)CCN1C[C@@H](O)C[C@@H](Cc1ccccc1)C(=O)N[C@H]1c2ccccc2C[C@H]1O,RF,cytopathic effect / XTT,,0.004 µM
Cn1cc(N)cc1C(=O)Nc1cc(C(=O)Nc2ccc3cc(S(=O)(=O)O)cc(S(=O)(=O)O)c3c2)n(C)c1,IIIB,cytopathic effect / XTT,,10.7 µM
CC(C)CN(C[C@@H](O)[C@H](Cc1ccccc1)NC(=O)[C@H](CC(N)=O)NC(=O)c1ccc2ccccc2n1)C(=O)NC(C)(C)C,RF,cytopathic effect / XTT,,0.06 µM
Cc1cn([C@H]2C[C@H](N=[N+]=[N-])[C@@H](CO)O2)c(=O)[nH]c1=O,LAV,cytopathic effect / XTT,,0.004 µM
CCCCCC=C(c1cc(Cl)c(OC)c(C(=O)N(C)C)c1)c1cc(Cl)c(OC)c(C(=O)N(C)C)c1,RF,cytopathic effect / XTT,,>21 µM
O=NNc1ccc(S(=O)(=O)c2ccc(NN=O)cc2)cc1,RF,XTT,,>100 µg/mL
CC(C)=CCC[C@]1(C)C=Cc2c(ccc3c2C(=O)C(O)=C(C2=C(C4=C(O)C(=O)c5c(ccc6c5C=C[C@@](C)(CCC=C(C)C)O6)C4=O)C(=O)c4c(ccc5c4C=C[C@@](C)(CCC=C(C)C)O5)C2=O)C3=O)O1,RF,cytopathic effect,,<20 µM
CCCCCC=C(c1cc(Cl)c(O)c(C(=O)NO)c1)c1cc(Cl)c(O)c(C(=O)NO)c1,RF,cytopathic effect / XTT,,>37 µM
Cc1ccnc2c1NC(=O)c1cccnc1N2C1CC1,RF,cytopathic effect / XTT,,0.2 µM
CC(=O)Oc1ccc(/C=C/C(=O)O[C@@H](C)[C@H](C)OC(=O)/C=C/c2ccc(OC(C)=O)c(OC(C)=O)c2)cc1OC(C)=O,RF,cytopathic effect / XTT,,>5.58 µM
CC(C)[C@H]1SCC[C@H]1OC(=O)N[C@@H](Cc1ccccc1)[C@H](O)CN1C[C@H]2CCS[C@H]2C[C@H]1C(=O)NC(C)(C)C,HXB2,cytopathic effect / XTT,,<0.085 µM
CCCCCCCCOC(=O)P(=O)(O)OC[C@H]1O[C@@H](n2cc(C)c(=O)[nH]c2=O)C[C@@H]1N=[N+]=[N-],LAI,RT activity,,0.03 µM
O=C(/C=C/c1ccc(O)c(O)c1)OCCOC(=O)/C=C/c1ccc(O)c(O)c1,,cytopathic effect / XTT,,>9.89 µM
Cc1cn([C@H]2C=C[C@@H](COP(=O)(O)O)O2)c(=O)[nH]c1=O,,cytopathic effect,,0.73 µM
Cc1cn([C@H]2C[C@H](N=[N+]=[N-])[C@@H](CO)O2)c(=O)[nH]c1=O,NL4-3,,RT-D67N K70R T215Y K219Q,0.98 µM

For reference, 6 entries again:

| smiles | strain or isolate | read by | changes | result |
|---|---|---|---|---|
| Cc1cn([C@H]2C=C[C@@H](COP(=O)(O)O)O2)c(=O)[nH]c1=O |  | cytopathic effect |  | 0.73 µM |
| Cc1ccnc2c1NC(=O)c1cccnc1N2C1CC1 | RF | cytopathic effect / XTT |  | 0.2 µM |
| Cc1cn([C@H]2C[C@H](N=[N+]=[N-])[C@@H](COP(=O)(OCCSC(=O)C(C)(C)C)OCCSC(=O)C(C)(C)C)O2)c(=O)[nH]c1=O | LAI | RT activity |  | 0.0004 µM |
| Cc1cn([C@H]2C[C@H](N=[N+]=[N-])[C@@H](CO)O2)c(=O)[nH]c1=O | LAI | RT activity |  | 0.006 µM |
| Cn1cc(N)cc1C(=O)Nc1cc(C(=O)Nc2ccc3cc(S(=O)(=O)O)cc(S(=O)(=O)O)c3c2)n(C)c1 | IIIB | cytopathic effect / XTT |  | 10.7 µM |
| CCOC(=O)CCNP(=O)(OC[C@@H]1O[C@H](n2cc(C)c(=O)[nH]c2=O)C[C@H]1N=[N+]=[N-])OC[C@H]1O[C@@H](n2cc(C)c(=O)[nH]c2=O)C[C@@H]1N=[N+]=[N-] | LAI | RT activity |  | 0.016 µM |